Pooled drug test results. Numbers come from NIAID ChemDB, via PubChem.

Common to all: whole-cell or culture tests; agent: Candida albicans; read-out: MIC

a–b is a range or a potency band. Blank or dashed fields: not listed here. Neighbouring rows are from separate reports.

compound,strain or isolate,read by,result
CNC1CC(O)C(C)(c2ccc(-c3ccccc3)cc2)OC1OC,-,-,>32 µg/mL
COC1CC2CCC(C)C(O)(O2)C(=O)C(=O)N2CCCCC2C(=O)OC(C(C)CC2CCC(O)C(OC)C2)CC(=O)C(C)/C=C(\C)C(O)[C@@](OC)(N(O)C(=O)OCC(C)C)C(=O)C(C)CC(C)/C=C/C=C/C=C/1C,RBP1/RBP1,-,>100 µg/mL
Fc1ccc(Nc2nnc(CSc3nnc(-c4ccco4)n3-c3ccc(Br)cc3)s2)cc1,ATCC 10231,-,8 µg/mL
Cc1c(C(c2ccccc2)n2ccnc2)cnn1-c1ccccc1,-,-,>200 µM
COC1C=CC(=O)C(C)(c2ccc(-c3ccccc3)cc2)O1,-,-,16 µg/mL
CN(C)CCSC(=S)NCc1cccc(Cl)c1,-,-,15 µg/mL
O=c1[nH]ncc2c1[nH]c1ccccc12,-,broth dilution,250 µg/mL
O=[N+]([O-])c1ccc(Nc2nnc(CSc3nnc(-c4ccco4)n3-c3ccc(Br)cc3)s2)cc1,ATCC 10231,-,>8 µg/mL
CCCn1c(-c2ccc(F)cc2)nc2cc([N+](=O)[O-])ccc21,-,-,12.5 µg/mL
C[C@@H]1Oc2ccccc2/C(=N/OCc2cccc(F)c2)[C@H]1n1ccnc1,ATCC 10231,-,16 µg/mL
CCCn1c(-c2ccc(F)cc2)nc2cc(N)ccc21,-,-,12.5 µg/mL
NNC(=O)CSc1nnc(-c2ccco2)n1-c1ccc(Br)cc1,ATCC 10231,-,8 µg/mL
CCn1c2ccccc2c2cnn(-c3ccc(OC)cc3)c(=O)c21,-,broth dilution,250 µg/mL
C[C@@H](N1CCN(c2ccc(OC(F)(F)C(F)F)cc2)C1=O)C(O)(Cn1cncn1)c1ccc(F)cc1F,TA,-,<0.016 µg/mL
O=C1C[C@H](Sc2ccccc2)N1,-,-,8–64 µg/mL
O=C1/C(=C/c2ccc(-c3ccccc3)cc2)CSc2ccccc21,-,-,25 µg/mL
COC1=CC(=O)C[C@@H](C)[C@]12Oc1c(Cl)c(OC)cc(OC)c1C2=O,10231,-,50 µg/mL
Cc1c(Sc2ccccc2)[n+](=O)c2cc(Cl)ccc2n1[O-],Clinical isolate 16,-,15.6 µg/mL
C[C@@H]1Oc2ccccc2/C(=N/OCc2ccc(Cl)cc2Cl)[C@H]1n1ccnc1,ATCC 10231,-,16 µg/mL
O=C(/C=C/c1cc(O)ccc1O)c1ccccc1,SDAU3,-,100 µg/mL
Fc1ccc(CCCCn2c3c(c4cc(F)ccc42)CNCC3)cc1,04-81,-,1 µg/mL
COC1CC2CCC(C)C(O)(O2)C(=O)C(=O)N2CCCCC2C(=O)OC(C(C)CC2CCC(O)C(OC)C2)CC(=O)C(C)/C=C(\C)[C@@](O)(c2ccc(C)s2)C(OC)C(=O)C(C)CC(C)/C=C/C=C/C=C/1C,TOR1-1/TOR1,-,>100 µg/mL
CCCCC1C(=O)N(c2ccccc2)N(c2ccc(O)cc2)C1=O,ATCC 90028,resazurin,>100 µM
CC(=O)N1CCN(c2ccc(OC[C@H]3CO[C@](Cn4ccnc4)(c4ccc(Cl)cc4Cl)O3)cc2)CC1,1208E,-,0.001 µg/mL
CCCn1c(-c2ccccc2)nc2cc([N+](=O)[O-])ccc21,-,-,25 µg/mL
O=C(/C=C/c1ccc(O)cc1O)c1ccccc1,SDAU6,-,75 µg/mL
Cn1c2ccccc2c2cnn(-c3ccccc3)c(=O)c21,-,broth dilution,250 µg/mL
C[C@@H](N1CCN(c2ccc(F)cc2)C1=O)C(O)(Cn1cncn1)c1ccc(F)cc1F,TIMM1756,-,<0.016 µg/mL
CC(=O)c1cc(CNC(=S)SCCN(C)C)c(C)cc1C,-,-,100 µg/mL
CO[C@@H]1[C@@H](C)O[C@@H](OCC23CC4C(C)CCC4C4(C=O)CC2C=C(C(C)C)C43C(=O)O)[C@@H](O)C12OC(=O)[C@H](CCCCCCCC(=O)O)O2,MY1055,-,6.25 µg/mL
CN(C)CCSC(=S)NCc1ccc(Cl)cc1,-,-,40 µg/mL
C[C@H]1[C@H](O)[C@@H](C)/C=C/C=C/C=C/C=C/C=C/C=C/C=C/[C@H](O[C@@H]2O[C@H](C)[C@@H](O)[C@H](N)[C@@H]2O)C[C@@H]2O[C@](O)(C[C@@H](O)C[C@@H](O)CC[C@H](O)[C@@H](O)C[C@@H](O)CC(=O)O[C@H]1C)C[C@H](O)[C@H]2C(=O)O,ATCC 10231,broth dilution,0.078–1.25 µg/mL
CCCCNc1nnc(CSc2nnc(-c3ccco3)n2-c2ccc(Br)cc2)s1,ATCC 10231,-,8 µg/mL
Cn1ncc(C(c2ccccc2)n2cncn2)c1-c1ccccc1,-,-,>200 µM
COc1ccc(/C=C2\COc3ccc(-c4ccccc4)cc3C2=O)cc1,-,-,25 µg/mL
Cc1c(Sc2ccccc2)[n+](=O)c2cc(C(F)(F)F)ccc2n1[O-],Clinical isolate 1,-,31.25 µg/mL
COc1ccc(/C=C2\CS(=O)(=O)c3ccccc3C2=O)cc1,-,-,12.5 µg/mL
Cc1ccc2nc(CCCN3CCN(c4ccccc4Cl)CC3)[nH]c2c1,ATCC 10231,-,78 µg/mL
CCCCCCCCCCNCCSC(=S)NCc1ccccc1,-,-,1000 µg/mL
C[C@@H]1C[C@@H](O)c2c(O[C@H]3O[C@H](CO)[C@@H](O)[C@H]3O)cccc2O1,ATCC 10231,turbidity,>128 µg/mL
COC1=CC(=O)C[C@@](C)(O)[C@H]1O,-,-,>400 µg/mL
Oc1ccccc1/C=C/c1ccc(Cl)cc1,PCM 1409 PZH,-,100 µg/mL
Cc1c(C(c2ccccc2)n2cncn2)cnn1-c1ccccc1,-,-,>200 µM
O=c1cc(-c2ccc(O)cc2)oc2cc(O)cc(O)c12,-,-,3.12 µg/mL
COc1ccccc1/C=C1\COc2ccccc2C1=O,-,-,50 µg/mL
C[C@H]1[C@H](O)[C@@H](C)/C=C/C=C/C=C/C=C/C=C/C=C/C=C/[C@H](O[C@@H]2O[C@H](C)[C@@H](O)[C@H](N)[C@@H]2O)C[C@@H]2O[C@](O)(C[C@@H](O)C[C@@H](O)CC[C@H](O)[C@@H](O)C[C@@H](O)CC(=O)O[C@H]1C)C[C@H](O)[C@H]2C(=O)O,ATCC28366,-,0.125 µg/mL
Cc1ccc2c(c1)c1nnc(N3CC[N+](C)([O-])CC3)nc1n2C,2381E,-,>125 µg/mL
C[C@@H](n1ncn(-c2ccc(OCC(F)(F)C(F)F)cc2)c1=O)[C@](O)(Cn1cncn1)c1ccc(F)cc1F,TIMM1756,-,0.016 µg/mL
CCN(CC)CCSC(=S)NCc1ccc(C)cc1,-,-,20 µg/mL
C[C@H]1[C@H](O)[C@@H](C)/C=C/C=C/C=C/C=C/C=C/C=C/C=C/[C@H](O[C@@H]2O[C@H](C)[C@@H](O)[C@H](N)[C@@H]2O)C[C@@H]2O[C@](O)(C[C@@H](O)C[C@@H](O)CC[C@H](O)[C@@H](O)C[C@@H](O)CC(=O)O[C@H]1C)C[C@H](O)[C@H]2C(=O)O,3153A,-,1.25 µg/mL
CN(C)CCSC(=S)NCc1c(Cl)cccc1Cl,-,-,40 µg/mL
C[C@H](O)Cc1cc2c(O[C@H]3O[C@H](CO)[C@@H](O)[C@H]3O)ccc(O)c2c(=O)o1,ATCC 32354,turbidity,>128 µg/mL
c1coc(-c2n[nH]c3c2CCCC3)c1,264/624,-,125 µg/mL
O=[n+]1c(Sc2ccccc2)c(CBr)n([O-])c2ccccc21,Clinical isolate 5,-,31.25 µg/mL
CC(C)(C)c1c(C(c2ccccc2)n2ccnc2)cnn1-c1ccccc1,-,-,>200 µM
Cn1c2ccccc2c2cnn(-c3ccc(Cl)cc3)c(=O)c21,-,broth dilution,250 µg/mL
Clc1ccccc1N1CCN(CCCc2nc3ccc(I)cc3[nH]2)CC1,ATCC 10231,-,625 µg/mL
O=[N+]([O-])c1ccc(-c2n[nH]c3c2CCCC3)cc1,264/624,-,500 µg/mL
CCNc1nnc(CSc2nnc(-c3ccco3)n2-c2ccc(Br)cc2)s1,ATCC 10231,-,8 µg/mL
CCCCCCCCOc1ccc(-c2ccc(C(=O)NC3CC(NCCN)CNC(=O)[C@@H]4[C@@H](O)[C@@H](C)CN4C(=O)[C@@H](CO)NC(=O)[C@H]([C@H](O)Cc4ccccc4)NC(=O)[C@@H]4C[C@@H](O)CN4C(=O)[C@H]([C@@H](C)O)NC3=O)cc2)cc1,2183,-,0.5 µg/mL
O=c1[nH]cc(F)c(=O)[nH]1,B311,-,4 µg/mL
C[C@@H]1Oc2cc(Cl)ccc2/C(=N/OCc2ccc(Cl)cc2Cl)[C@H]1n1ccnc1,ATCC 10231,-,16 µg/mL
Clc1ccc(Nc2nnc(CSc3nnc(-c4ccco4)n3-c3ccc(Br)cc3)s2)cc1,ATCC 10231,-,>32 µg/mL
O=[N+]([O-])c1cccc(CN(Cc2cccc(C(F)(F)F)c2)Cc2cccc(CN(CCNCCCO)Cc3cccc(C(F)(F)F)c3)n2)c1,ATCC 10231,-,>100 µM
Cc1c(Cl)[n+](=O)c2cc(Cl)ccc2n1[O-],Clinical isolate 4,-,15.6 µg/mL
CCCn1c(-c2ccccc2)nc2cc(NC(=S)Nc3ccccc3)ccc21,-,-,25 µg/mL
O=C1CCCC2=C1C(c1ccc(Cl)cc1)n1c(s/c(=C\c3ccc(Cl)cc3)c1=O)=N2,AUCC-1720,-,100 µg/mL
C[C@@H]1Oc2ccccc2/C(=N/OCc2ccc(Cl)cc2Cl)[C@H]1[n+]1cnc[nH]1,ATCC 10231,-,>64 µg/mL
CN(C)CCSC(=S)NCc1ccc(-c2ccccc2)cc1,-,-,100 µg/mL
N#CC1=C(N)OC2=C(SC3=NC4=C(C(=O)CCC4)C(c4ccc(F)cc4)N32)C1c1ccc(Cl)cc1,AUCC-1720,-,100 µg/mL
C[C@@H]1Oc2ccccc2/C(=N/OCc2ccccc2F)[C@H]1n1ccnc1,ATCC 10231,-,16 µg/mL

Repeating the first 6 entries:

compound,strain or isolate,read by,result
CNC1CC(O)C(C)(c2ccc(-c3ccccc3)cc2)OC1OC,-,-,>32 µg/mL
COC1CC2CCC(C)C(O)(O2)C(=O)C(=O)N2CCCCC2C(=O)OC(C(C)CC2CCC(O)C(OC)C2)CC(=O)C(C)/C=C(\C)C(O)[C@@](OC)(N(O)C(=O)OCC(C)C)C(=O)C(C)CC(C)/C=C/C=C/C=C/1C,RBP1/RBP1,-,>100 µg/mL
Fc1ccc(Nc2nnc(CSc3nnc(-c4ccco4)n3-c3ccc(Br)cc3)s2)cc1,ATCC 10231,-,8 µg/mL
Cc1c(C(c2ccccc2)n2ccnc2)cnn1-c1ccccc1,-,-,>200 µM
COC1C=CC(=O)C(C)(c2ccc(-c3ccccc3)cc2)O1,-,-,16 µg/mL
CN(C)CCSC(=S)NCc1cccc(Cl)c1,-,-,15 µg/mL